Laboratory results taken from publication PMC2964674.

Target: T1, EBNA1 DBD (Epstein-Barr virus) (UniProt P03211)
T1 sequence (looked up): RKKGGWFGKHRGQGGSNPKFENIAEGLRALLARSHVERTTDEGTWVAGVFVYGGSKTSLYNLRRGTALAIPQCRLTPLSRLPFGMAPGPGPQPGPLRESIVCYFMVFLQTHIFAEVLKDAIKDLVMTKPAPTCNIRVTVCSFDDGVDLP
Assay: EMSA
Conditions: 246 nM DBD, 10 nM DNA, recombinant protein, residues 459-607, protein details: hexa-His, label: 32P

ATGGTAGAGGCAGCACATGCTACCTAACCT (double strand) [Motif 2]
binding result (relatively high affinity): binds

GATCCGGATACAGATTAGGATAGCATATACTACCCA (double strand) [EBV FR]
binding result: binds

GGATAGGATGTCACATACGAATTTTGAGGG (double strand) [MAP3K7IP2]
binding result: binds

TGGATAATAAGTGTTGCCTCTTGGGTAACC (double strand) [Chr11.1]
binding result (relatively high affinity): binds

For at least one entry, the source does not settle the construct or the ends of the probe. At least one verdict was read from the data and is not stated in words by the source. Protein sequences can lack the tags named with them.
